Assay results taken from patent publication US8058410B2, “Affinity ligands” (dated 2011).

Target: Npro mutants with the EDDIE motif in amino acid residues 53 to 57 (Classical swine fever virus, UniProt P21530, A109T/C112E/C134E/C138E/D160N/D35N/E148T/F89Y/G54D/I135V/I155T/K57E/K61R/L143Q/L158T/M18V/M94T/N13S/N55D/N62D/R53E/R66K/T28A/V114T/V27T/V83I)

Row | Substance | affinity to Npro mutants with the EDDIE motif in amino acid residues 53 to 57
1 | AFYRWY | specifically high affinity
2 | VSRNWY | specifically high affinity
